The values that follow are results of earlier work, collected in PubChem BioAssay AID977610.

The target of data set [1] is Lp1NTPDase from Legionella pneumophila. The data set can be described thus: PubChem AID 977610. The conditions noted are these: PDB protein-ligand complexes, literature Ki; protein: Lp1NTPDase from Legionella pneumophila; PDB entry 3AAQ.
For the next data set, the target named is glutamine synthetase. Nature of the data set: PubChem AID 977610. The conditions noted are these: PDB protein-ligand complexes, literature Ki; protein: glutamine synthetase; PDB entry 1FPY.

With `CCN(CC)c1ncnc2c1ncn2[C@@H]1O[C@H](COP(=O)(O)OP(=O)(O)C(Br)(Br)P(=O)(O)O)[C@@H](O)[C@H]1O`, the Ki (commonly the equilibrium dissociation constant of an inhibitor or competing ligand from its target) in data set [1] is 500 µM.
With `CP(=O)(O)CC[C@H](N)C(=O)O`, the Ki at glutamine synthetase was 1 µM.
